Reference: PubChem BioAssay AID624099 (ICCB-Longwood, 2012)
The deposit covers about 21,000 reagents; shown is an unselected part. 497 of all reagents (2.4%) count as active. 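Higher z means weaker E2 silencing; only reporter increases were scored, and knock-downs that hurt cell survival may mask genuine repressor factors.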

Test: 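Human genes that papillomavirus E2 requires to repress the HPV18 LCR promoter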 (primary screen)
Cell system: human C33A cervical carcinoma cells (HPV-negative) stably expressing BPV1 E2 and an HPV18 LCR luciferase reporter
Reagent: siRNA pool against human genes, 40 nM
Duration: 72 h
Measured: 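HPV18 LCR reporter light per well, converted to plate-wise z-scores that exclude control wells, and averaged over triplicate plates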
Direction: mean z-score and z-score: higher = stronger reporter signal, weaker E2 silencing
Active means: 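Mean z ≥ 2 together with z ≥ 2 in two or more of the three replicates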

| gene | PubChem SID | mean z-score | z-score, replicate A | z-score, replicate B | z-score, replicate C | outcome |
| --- | --- | --- | --- | --- | --- | --- |
| OR51E2 (olfactory receptor family 51 subfamily E member 2) | SID134313628 | -0.16 | -0.57 | 0.16 | -0.07 | inactive |
| LOC388180 (retired record) | SID134328596 | 2.06 | 2.34 | 1.9 | 1.94 | inactive |
| ZNF177 (zinc finger protein 177) | SID134323540 | -0.32 | -0.33 | -0.24 | -0.38 | inactive |
| CFH (complement factor H) | SID134312855 | -1.9 | -1.64 | -2.04 | -2.03 | inactive |
| SPATC1 (spermatogenesis and centriole associated 1) | SID134329341 | 1.12 | 0.77 | 0.9 | 1.7 | inactive |
| LOC391844 (retired record) | SID134327519 | -0.53 | -0.72 | -0.48 | -0.41 | inactive |
| MYO1E (myosin IE) | SID134323677 | 0.4 | 0.43 | 0.57 | 0.21 | inactive |
| RPLP1P5 (ribosomal protein lateral stalk subunit P1 pseudogene 5) | SID134325571 | 0.8 | 1.09 | 0.7 | 0.61 | inactive |
| GAR1 (GAR1 ribonucleoprotein) | SID134317613 | -0.07 | 0.04 | 0.03 | -0.26 | inactive |
| KCNS2 | SID134315190 | -0.08 | -0.2 | 0.23 | -0.26 | inactive |
| KPNA6 (karyopherin subunit alpha 6) | SID134321237 | 1.24 | 1.36 | 1.3 | 1.08 | inactive |
| MSGN1 (mesogenin 1) | SID134325397 | -0.18 | -0.56 | -0.01 | 0.03 | inactive |
| LOC158825 (retired record) | SID134326179 | -0.23 | 0.23 | -0.19 | -0.72 | inactive |
| TBCB (tubulin folding cofactor B) | SID134323918 | -0.83 | -0.66 | -0.96 | -0.87 | inactive |
| GCKR (glucokinase regulator) | SID134315633 | 0.61 | 0.95 | 0.49 | 0.38 | inactive |
| GRIA3 (glutamate ionotropic receptor AMPA type subunit 3) | SID134311605 | 0.4 | 0.52 | 0.33 | 0.37 | inactive |
| ANAPC4 (anaphase promoting complex subunit 4) | SID134317858 | -0.2 | -0.06 | -0.36 | -0.19 | inactive |
| PILRB (paired immunoglobin like type 2 receptor beta) | SID134322842 | -1.06 | -1.09 | -1.02 | -1.06 | inactive |
| ARFGEF2 (ARF guanine nucleotide exchange factor 2) | SID134316497 | 0.39 | 0.52 | 0.19 | 0.46 | inactive |
| TMEM177 (transmembrane protein 177) | SID134318744 | 0.14 | 0.28 | 0.13 | 0.01 | inactive |

The list goes on; the last 7 above are carried over.
| gene | PubChem SID | mean z-score | z-score, replicate A | z-score, replicate B | z-score, replicate C | outcome |
| --- | --- | --- | --- | --- | --- | --- |
| TBCB (tubulin folding cofactor B) | SID134323918 | -0.83 | -0.66 | -0.96 | -0.87 | inactive |
| GCKR (glucokinase regulator) | SID134315633 | 0.61 | 0.95 | 0.49 | 0.38 | inactive |
| GRIA3 (glutamate ionotropic receptor AMPA type subunit 3) | SID134311605 | 0.4 | 0.52 | 0.33 | 0.37 | inactive |
| ANAPC4 (anaphase promoting complex subunit 4) | SID134317858 | -0.2 | -0.06 | -0.36 | -0.19 | inactive |
| PILRB (paired immunoglobin like type 2 receptor beta) | SID134322842 | -1.06 | -1.09 | -1.02 | -1.06 | inactive |
| ARFGEF2 (ARF guanine nucleotide exchange factor 2) | SID134316497 | 0.39 | 0.52 | 0.19 | 0.46 | inactive |
| TMEM177 (transmembrane protein 177) | SID134318744 | 0.14 | 0.28 | 0.13 | 0.01 | inactive |
| PFDN4 (prefoldin subunit 4) | SID134317254 | 1.19 | 1.06 | 1.04 | 1.47 | inactive |
| SPEN (spen family transcriptional repressor) | SID134317843 | -0.37 | -0.81 | -0.4 | 0.11 | inactive |
| LOC389330 (retired record) | SID134327551 | 2.12 | 2.27 | 2.03 | 2.05 | active |
| C22orf23 (chromosome 22 open reading frame 23) | SID134320798 | 1.06 | 1.05 | 1.05 | 1.09 | inactive |
| SLC39A5 | SID134312412 | 0.06 | 0.3 | 0.23 | -0.34 | inactive |
| SAGE1 (sarcoma antigen 1) | SID134317557 | -0.08 | -0.02 | -0.07 | -0.16 | inactive |
| KRT6A (keratin 6A) | SID134316411 | -0.63 | -0.94 | -0.63 | -0.31 | inactive |
| KRT6A (keratin 6A) | SID134317262 | -0.55 | -0.36 | -0.58 | -0.7 | inactive |
| P2RX2 (purinergic receptor P2X 2) | SID134311701 | 0.93 | 0.93 | 0.94 | 0.92 | inactive |
| BLCAP (BLCAP apoptosis inducing factor) | SID134316558 | -0.42 | -0.46 | -0.29 | -0.51 | inactive |
| SOX18 (SRY-box transcription factor 18) | SID134322853 | 1.13 | 1.3 | 1.03 | 1.05 | inactive |
| TCP10L (t-complex 10 like) | SID134319919 | 0.44 | 0.33 | 0.39 | 0.61 | inactive |
| TCP10L (t-complex 10 like) | SID134323954 | -1.42 | -1.78 | -1.78 | -0.69 | inactive |
| KCNJ3 (potassium inwardly rectifying channel subfamily J member 3) | SID134311666 | 0.32 | 0.62 | -0.18 | 0.51 | inactive |
| SORD (sorbitol dehydrogenase) | SID134313202 | -0.11 | -0.21 | -0.12 | 0 | inactive |
| MAGEB3 (MAGE family member B3) | SID134315672 | 0.38 | 0.12 | 0.81 | 0.19 | inactive |
| VKORC1L1 (vitamin K epoxide reductase complex subunit 1L1) | SID134322390 | -0.19 | -0.25 | 0.04 | -0.35 | inactive |
| ZNF622 (zinc finger protein 622) | SID134319167 | 0.44 | 0.25 | 0.55 | 0.51 | inactive |
| MRPS6 (mitochondrial ribosomal protein S6) | SID134323047 | 0.43 | 0.51 | 0.54 | 0.22 | inactive |
| LINC00974 (long independently transcribed non-coding RNA 974) | SID134328784 | -0.59 | 0.42 | -1.64 | -0.55 | inactive |
| LOC153910 | SID134327631 | -0.5 | -0.18 | -0.51 | -0.81 | inactive |
| ARHGAP33 (Rho GTPase activating protein 33) | SID134313992 | -1.16 | -1.01 | -1.19 | -1.29 | inactive |
| PRB3 (proline rich protein BstNI subfamily 3) | SID134318358 | -0.41 | -0.44 | -0.33 | -0.46 | inactive |
| GIPR (gastric inhibitory polypeptide receptor) | SID134310957 | 0.19 | 0.26 | 0.15 | 0.16 | inactive |
| LARS1 (leucyl-tRNA synthetase 1) | SID134314787 | -0.07 | 0.1 | -0.29 | -0.02 | inactive |
| FMO5 (flavin containing dimethylaniline monoxygenase 5) | SID134313062 | -1.7 | -1.73 | -1.71 | -1.68 | inactive |
| LOC727862 (retired record) | SID134328826 | -0.33 | 0.04 | -0.61 | -0.41 | inactive |
| TBXT (T-box transcription factor T) | SID134315741 | 1.02 | 1.14 | 0.88 | 1.04 | inactive |
| C21orf58 (chromosome 21 open reading frame 58) | SID134319266 | 0.92 | 0.93 | 1.03 | 0.8 | inactive |
| KAT6A (lysine acetyltransferase 6A) | SID134323611 | -0.74 | -0.88 | -0.62 | -0.72 | inactive |
| SV2B (synaptic vesicle glycoprotein 2B) | SID134312677 | 0.63 | 0.28 | 0.81 | 0.8 | inactive |
| NFIL3 (nuclear factor, interleukin 3 regulated) | SID134316965 | 0.85 | 1.06 | 0.7 | 0.79 | inactive |
| TMEM267 (transmembrane protein 267) | SID134321085 | 0.01 | 0.37 | -0.13 | -0.21 | inactive |
| MLC1 (modulator of VRAC current 1) | SID134317130 | 0.64 | 0.43 | 0.61 | 0.87 | inactive |
| UIMC1 (ubiquitin interaction motif containing 1) | SID134312119 | 0.59 | 0.8 | 0.82 | 0.16 | inactive |
| INSR (insulin receptor) | SID56478470 | 0.58 | 0.7 | 0.38 | 0.67 | inactive |
| PCNP (PEST proteolytic signal containing nuclear protein) | SID134323991 | 0.6 | 0.58 | 0.5 | 0.71 | inactive |
